The target of experiment [1] is T1, Clr4 wild type, SUMO- and His-tagged full-length (S. pombe, UniProt O60016 1-490).
T1 construct: Clr4, histone H3 lysine 9 methyltransferase of Schizosaccharomyces pombe, 490 amino acids, full length; also called Clr4 WT; WT Clr4; source: E. coli BL21-CodonPlus (DE3), purified (Ni-NTA, size exclusion chromatography)
In words: enzyme inhibition kinetics (inhibition of Clr4 automethylation by histone peptide, radioactive methyltransferase assay); 0.3 µM Clr4, 25–400 µM peptide, 0.76 µM radioactively labeled AdoMet, 50 mM Tris pH 8.8, 10 mM MgCl2, 20 mM KCl, 1 mM DTT, 1 h at 30 °C; Tricine-SDS-PAGE and autoradiography; globally fitted to a simple inhibitor binding model. The following applies: both partners purified.

Sequences of proteins named here, by UniProt entry; tags and fusion partners are left off.
UniProt O60016, whole entry A454R: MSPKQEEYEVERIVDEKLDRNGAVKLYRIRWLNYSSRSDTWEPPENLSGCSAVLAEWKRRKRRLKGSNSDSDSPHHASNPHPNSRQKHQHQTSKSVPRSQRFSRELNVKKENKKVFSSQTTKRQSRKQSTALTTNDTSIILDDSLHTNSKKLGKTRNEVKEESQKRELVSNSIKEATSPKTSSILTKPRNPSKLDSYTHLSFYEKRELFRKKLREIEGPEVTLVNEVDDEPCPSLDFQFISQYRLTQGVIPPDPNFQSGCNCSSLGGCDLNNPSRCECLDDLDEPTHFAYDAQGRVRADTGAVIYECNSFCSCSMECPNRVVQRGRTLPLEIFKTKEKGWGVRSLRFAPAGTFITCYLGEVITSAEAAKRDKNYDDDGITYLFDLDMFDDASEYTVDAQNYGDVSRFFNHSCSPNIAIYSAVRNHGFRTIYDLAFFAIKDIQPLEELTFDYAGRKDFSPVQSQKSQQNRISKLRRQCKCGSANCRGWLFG

Experiment [2] addresses T2, Clr4 A454R mutant, SUMO- and His-tagged full-length (S. pombe, UniProt O60016 1-490, A454R).
T2 construct: Clr4, histone H3 lysine 9 methyltransferase of Schizosaccharomyces pombe, 490 amino acids, full length, with A454R in the autoregulatory loop; source: E. coli BL21-CodonPlus (DE3), purified (Ni-NTA, size exclusion chromatography)
The experiment is described as above. The conditions noted are these: both partners purified.

B1: H3K9me1-biotin (1–18) peptide (peptide, UniProt P68431 2-19, looked up)
peptide: ARTKQTARKSTGGKAPRK
modifications: monomethyl-lysine at 9; biotin (end not stated)
notes: histone H3, residues 1-18, monomethylated at K9; also called monomethylated H3K9 peptide; source: synthetic peptide, bought: Intavis AG
B1: the Ki in experiment [1] is 24.6 µM; in experiment [2], 11.5 µM.

The record behind these values is publication PMC7700585, “Mechanistic Insights into the Allosteric Regulation of the Clr4 Protein Lysine Methyltransferase by Autoinhibition and Automethylation” (International Journal of Molecular Sciences, 2020).
